# In article PMC12892976, “Alkylation-based optimization of antifungal FPPS inhibitors yields a potent, broad-spectrum lipophilic zoledronate derivative” (mBio, 2025):
# Test system: HEK-293T cells
# Test: MTT reduction cytotoxicity assay
# Type: cell-based, human
# Conditions: for Ratio (GM fungal MIC vs HEK IC50): HEK IC50 relative to GM fungal MIC; for Ratio (GM fungal MICc vs HEK IC50): HEK IC50 relative to GM fungal MICc
SMILES,Ratio (GM fungal MIC vs HEK IC50),Ratio (GM fungal MICc vs HEK IC50)
CCCCCCCCCCCN1CCC[C@H]1C(=O)N[C@@H](CC(=O)OC)C(=O)OC [dmPLA11],0.31,0.506
"O=P(O)(O)C(O)(Cn1ccnc1)P(=O)(O)O [ZOL, zoledronate]",13.404,92.814
CCCCCCCCCCN1CCC[C@H]1C(=O)N[C@@H](CC(=O)OC)C(=O)OC [dmPLA10],0.076,0.197
CCCCCCCCCN1CCC[C@H]1C(=O)N[C@H](CC(=O)OC)C(=O)OC [dmPDA9],0.126,0.188
CCCCCCCCCCN1CCC[C@H]1C(=O)N[C@H](CC(=O)OC)C(=O)OC [dmPDA10],0.089,0.126
CCCCCCCCCN1CCC[C@H]1C(=O)N[C@@H](CC(=O)OC)C(=O)OC [dmPLA9],0.323,0.791
CCCCCCCCCCCN1CCC[C@H]1C(=O)N[C@H](CC(=O)OC)C(=O)OC [dmPDA11],0.089,0.244
CCCCCCCCCCCCN1CCC[C@H]1C(=O)N[C@H](CC(=O)OC)C(=O)OC [dmPDA12],0.003,0.013
CCCCCCCCCCCCN1CCC[C@H]1C(=O)N[C@@H](CC(=O)OC)C(=O)OC [dmPLA12],0.053,0.178
CCCCCCCCCCCCN1CCC[C@H]1C(=O)N[C@H](CC(=O)O)C(=O)O [PDA12],0.715,3.209
